A mixed list of measured activities; the numbers were collected in NIAID ChemDB.

Shared fields: cytotoxicity tests; cells: CEM; read-out: CC50

Neighbouring rows are from separate reports. CCn: concentration that lowers growth or viability of the cells by n%. An empty or dashed field is not shown. a–b is a range or a potency band.

compound | method | result
CCCCCCCCCCCC(=O)NCC(COP(=O)([O-])OCCC[N+](C)(C)C)OCCCCCCCC |  | 54.3 µM
Cc1cc(CO)c(O)c(-c2cc(C)cc(CO)c2O)c1 | trypan blue | 150 µM
Cc1cn(COC(CO)CN=[N+]=[N-])c(=O)[nH]c1=O |  | 0.05–100 µM
CN=C1CN=C(c2ccc[nH]2)c2cc(Cl)ccc2N1 |  | 3.5 µg/mL
COC(=O)C[C@@H](NP(=O)(OC[C@H]1C=C[C@@H](n2cnc3c(N)ncnc32)C1)Oc1ccccc1)C(=O)OC | trypan blue | ≥250 µM
Nc1nc(NC2CC2)c2ncn(C=C3CC3CO)c2n1 | visual reading | 100 µM
COC(=O)[C@@H](NC(=O)[C@@H](NC(=O)CC[C@H](O)[C@H](Cc1ccccc1)NC(=O)[C@H](C)NC(=O)OCc1ccccc1)C(C)C)C(C)C |  | >100 µM
Cc1cn([C@H]2C[C@@H](O)[C@H](CO)O2)c(=O)[nH]c1=O |  | >1000 µM
NC(=S)N=Nc1c(O)cc(Nc2ccc(Cl)cc2Cl)c2ccccc12 |  | 200 µM
CCc1cc(NCc2nc3c(Cl)ccc(Cl)c3o2)c(=O)[nH]c1C |  | >60 µM
C1CNCCNCCCN(CCCN2CCCNCCNCCCNCC2)CCNC1 |  | >1865 µM
C[C@]1(Br)C(=O)NC(=O)N([C@H]2C[C@H](F)[C@@H](CO)O2)[C@@H]1N=[N+]=[N-] |  | 100 µM
Nc1cc(OCCOCP(=O)(O)O)nc(N)n1 |  | 42 µM
O=S(=O)(c1ccccc1)c1ccccc1 |  | 120 µM
CO[C@H]1N([C@H]2C[C@H](F)[C@@H](CO)O2)C(=O)NC(=O)[C@]1(C)Cl |  | >800 µM
CCCCCCCCCCCC(=O)NCC(COP(=O)(O)OC[C@H]1O[C@@H](n2cc(C)c(=O)[nH]c2=O)C[C@@H]1N=[N+]=[N-])OCCCCCCCC |  | >100 µM
Nc1ncn([C@@H]2O[C@H](CO)[C@@H](O)[C@H]2O)c(=O)n1 |  | >1 µM
Nc1nc2c(ncn2[C@@H]2O[C@@H](CO)[C@H](O)[C@H]2O)c(=O)[nH]1 |  | >100 µM
O=S(=O)(Nc1nnc2n1-c1ccccc1CC2)c1ccc(F)cc1S |  | 109.3 µM
CCCCCCCCCCCCCCCCCC(=O)NCC(COP(=O)([O-])OCC[N+](C)(C)C)OCCCCCCCC |  | 36 µM
Nc1nc2c(ncn2CCCOCP(=O)(O)O)c(=O)[nH]1 |  | >100 µg/mL
C1CNCCNCCCN[C@H]([C@@H]2CNCCCNCCNCCCN2)CNC1 |  | >724 µM
CC(=O)c1ccc(C)cc1NC(C(N)=O)c1c(Cl)cccc1Cl |  | 127 µM
Cc1cc(S(=O)(=O)Nc2nnc3ccccn23)c(S)cc1Cl |  | >200 µM
C=C(C)[C@@H]1CC[C@]2(C(=O)NCCCCCCCC(=O)N[C@@H](CC(C)C)[C@H](O)CC(=O)O)CC[C@]3(C)[C@H](CC[C@@H]4[C@@]5(C)CC[C@H](O)C(C)(C)[C@@H]5CC[C@]43C)[C@@H]12 |  | >5 µM
Cc1cc(S(=O)(=O)Nc2nc(N)nc(N3CCOCC3)n2)c(S)cc1Cl |  | >200 µM
CO[C@@H]1N([C@H]2C[C@H](F)[C@@H](CO)O2)C(=O)NC(=O)[C@@]1(C)Br |  | 9.72 µM
CCCCCCCCCC(=O)NCC(COP(=O)([O-])OCC[N+](C)(C)C)OCCCCCCCC |  | >100 µM
Cc1ccc(Nc2nc(NS(=O)(=O)c3cc(C)c(Cl)cc3S)n(C)n2)cc1 |  | 100 µM
CCCCCCCCCCOC(CNC(=O)CCCCCCCCC)COP(=O)([O-])OCC[N+](C)(C)C |  | 80.5 µM
Cc1c(Sc2ccccc2)n(COC(CN=[N+]=[N-])COCc2ccccc2)c(=O)[nH]c1=O |  | 0.05–100 µM
CCCCn1cnnc1NS(=O)(=O)c1cc(C)c(Cl)cc1SCC(=O)O |  | >200 µM
C[C@]12CC[C@H](O)C[C@@H]1CC[C@@H]1[C@@H]2CC[C@]2(C)C(=O)[C@H](Br)C[C@@H]12 | trypan blue | 2.6 µM
Cc1cn([C@H]2C[C@H](N=[N+]=[N-])[C@@H](COC(=O)C3CCC4C5CCC6=CC(=O)CCC6(C)C5C(O)CC34C)O2)c(=O)[nH]c1=O |  | >20 µM
Nc1nc(N)c(Cc2c(N)nc(N)nc2OCCOCP(=O)(O)O)c(OCCOCP(=O)(O)O)n1 |  | 200 µM
CCc1c(Sc2ccccn2)n(COCc2ccccc2)c(=O)[nH]c1=O |  | 44 µM
Cn1cc(C(=O)O)c(=O)c2cc(F)c(N3CC=C(c4ccccc4)CC3)c(C(F)(F)F)c21 |  | 3 µM
Cc1cc(S(=O)(=O)Nc2n[nH]c(Nc3ccccc3)n2)c(SCC(=O)O)cc1Cl |  | >200 µM
Nc1nc2c(ncn2[C@H]2C[C@@H](O)[C@H](CO)O2)c(=O)[nH]1 |  | >500 µM
COC1(OC)CCCCC2c3cccc(OC(C)=O)c3C21OC(C)=O |  | 26 µM
CC(C)=CCN1Cc2c(F)ccc3[nH]c(=S)n(c23)C[C@@H]1C |  | >81.9 µM
Cc1ccc(Nc2nc(NS(=O)(=O)c3cc(C)c(Cl)cc3S)n[nH]2)cc1 |  | >200 µM
Nc1nc2c(ncn2CCOCP(=O)(O)O)c(=O)[nH]1 |  | 10 µg/mL
CC(C)(C)C(=O)OCOP(=O)(COCCn1cnc2c(N)ncnc21)OCOC(=O)C(C)(C)C |  | 1.4 µM
O=c1ccn([C@@H]2O[C@@H](CO)[C@H](O)[C@H]2O)c(=O)[nH]1 |  | >1000 µM
CO[C@H]1N([C@H]2C[C@H](F)[C@@H](CO)O2)C(=O)NC(=O)[C@@]1(C)Cl |  | >800 µM
Nc1nc(=O)n([C@@H]2O[C@H](CO)C[C@H]2F)cc1F |  | >100 µM
CNC(=O)c1cc(S(=O)(=O)Nc2nncn2CC(C)C)c(S)cc1Cl |  | >200 µM
Cc1cn([C@H]2C[C@H](N=[N+]=[N-])[C@@H](COP(=O)(OCCC#N)O[C@H]3CC[C@@]4(C)C(=CC[C@@H]5[C@@H]4CC[C@]4(C)C([C@H](C)CCCC(C)C)CC[C@@H]54)C3)O2)c(=O)[nH]c1=O |  | >200 µM
Cc1c(N)nc(N)nc1OCCOCP(=O)(O)O |  | 4.7 µM
CCCCCCCCCCCC(=O)NCC(COP(=O)([O-])OCC[N+](C)(C)C)OCCCCCCCC |  | 56.8 µM

7 of the rows above, restated:

CO[C@H]1N([C@H]2C[C@H](F)[C@@H](CO)O2)C(=O)NC(=O)[C@]1(C)Cl ; result: >800 µM
C=C(C)[C@@H]1CC[C@]2(C(=O)NCCCCCCCC(=O)N[C@@H](CC(C)C)[C@H](O)CC(=O)O)CC[C@]3(C)[C@H](CC[C@@H]4[C@@]5(C)CC[C@H](O)C(C)(C)[C@@H]5CC[C@]43C)[C@@H]12 ; result: >5 µM
C[C@]1(Br)C(=O)NC(=O)N([C@H]2C[C@H](F)[C@@H](CO)O2)[C@@H]1N=[N+]=[N-] ; result: 100 µM
CCCCCCCCCCOC(CNC(=O)CCCCCCCCC)COP(=O)([O-])OCC[N+](C)(C)C ; result: 80.5 µM
Cc1cn([C@H]2C[C@H](N=[N+]=[N-])[C@@H](COC(=O)C3CCC4C5CCC6=CC(=O)CCC6(C)C5C(O)CC34C)O2)c(=O)[nH]c1=O ; result: >20 µM
CO[C@@H]1N([C@H]2C[C@H](F)[C@@H](CO)O2)C(=O)NC(=O)[C@@]1(C)Br ; result: 9.72 µM
COC(=O)[C@@H](NC(=O)[C@@H](NC(=O)CC[C@H](O)[C@H](Cc1ccccc1)NC(=O)[C@H](C)NC(=O)OCc1ccccc1)C(C)C)C(C)C ; result: >100 µM